A mixed list of measured activities; the numbers were collected in NIAID ChemDB.

Shared fields: whole-cell or culture tests; organism: Cryptosporidium parvum; measure: EC50

ECn: concentration that inhibits the pathogen or its effect by n%. Blank or dashed fields: not listed here. Lines come from different laboratories, so protocols vary. a–b is a range or a potency band.

structure,strain,cells,method,value
Nc1ccc2c(Sc3ccc([N+](=O)[O-])cc3)c3ccccc3nc2c1,-,-,-,>10 µg/mL
O=C1/C(=C/c2ccc(O)cc2)Oc2cc(O)ccc21,-,-,-,25–50 µM
Cn1ncc2c1C(=O)c1c(Cl)ccc(O)c1C2=O,-,-,-,<10 µM
CCSc1c2ccccc2nc2cc(Cl)ccc12,-,-,-,>10 µg/mL
COc1ccc(/C=C\C=C\c2cc(OC)cc(=O)o2)cc1,-,-,-,>50 µM
O=[N+]([O-])c1ccc(Sc2c3ccccc3nc3cc(Cl)ccc23)cc1,-,-,-,>50 µg/mL
COc1ccc(/C=C2\Oc3cc(O)cc(O)c3C2=O)cc1O,-,-,-,10–25 µM
O=[N+]([O-])c1ccc(CSc2c3ccccc3nc3cc(Cl)ccc23)cc1,-,-,-,>50 µg/mL
Cc1ccc2c(c1)C(=O)c1c(cnn1C)C2=O,-,-,-,25–50 µM
CCN(CC)CCSc1c2ccccc2nc2cc(N)ccc12,-,-,-,>50 µg/mL
NC[C@@H]1O[C@H](O[C@H]2[C@@H](O)[C@H](O[C@@H]3[C@@H](O)[C@H](N)C[C@H](N)[C@H]3O[C@H]3O[C@H](CO)[C@@H](O)[C@H](O)[C@H]3N)O[C@@H]2CO)[C@H](N)[C@@H](O)[C@@H]1O,-,MDBK,cell count,<250 µg/mL
CC[C@@H](C(=O)[C@@H](C)[C@@H](O)[C@H](C)CCc1ccc(C)c(O)c1C(=O)O)[C@H]1O[C@](CC)([C@H]2CC[C@](O)(CC)[C@H](C)O2)C[C@@H]1C,-,A549,-,0.5–2 µg/mL
Cc1cc(O)c2c(c1Cl)C(=O)c1cn[nH]c1C2=O,-,-,-,>100 µM
CC[C@@H](C(=O)[C@@H](C)[C@@H](O)[C@H](C)CCc1ccc(C)c(O)c1C(=O)O)[C@H]1O[C@](CC)([C@H]2CC[C@](O)(CC)[C@H](C)O2)C[C@@H]1C,IOWA,MDCK,luminescence,0.4 µg/mL
Cn1ncc2c1C(=O)c1c(O)c3c(c(O)c1C2=O)CCCC3,-,-,-,>100 µM
Nc1ccc(CSc2c3ccccc3nc3cc(Cl)ccc23)cc1,-,-,-,>50 µg/mL
Cn1ncc2c1C(=O)c1cccc(Br)c1C2=O,-,-,-,25–50 µM
C=C/C=C/c1cc(OC)cc(=O)o1,-,-,-,10–25 µM
Cc1cccc2c1C(=O)c1cnn(C)c1C2=O,-,-,-,>100 µM
CC[C@H]1OC(=O)[C@H](C)[C@@H](O[C@H]2C[C@@](C)(OC)[C@@H](O)[C@H](C)O2)[C@H](C)[C@@H](O[C@@H]2O[C@H](C)C[C@H](N(C)C)[C@H]2O)[C@](C)(O)C[C@@H](C)CN(C)[C@H](C)[C@@H](O)[C@]1(C)O,-,A549,-,>8 µg/mL
CCSc1c2ccccc2nc2ccccc12,-,-,-,>10 µg/mL
COc1cc(C)cc2c1C(=O)c1cnn(C)c1C2=O,-,-,-,50–100 µM

For reference, 2 entries again:

{"structure": "Cc1cc(O)c2c(c1Cl)C(=O)c1cn[nH]c1C2=O", "value": ">100 µM"}
{"structure": "Cn1ncc2c1C(=O)c1cccc(Br)c1C2=O", "value": "25–50 µM"}